Measurements taken from PMC6319706 (PLoS ONE, 2019).

Amino acid sequences for entries named in this document (tags omitted). A change or cut given only in a name is not applied to a line headed by its entry. Residues count along the entry.
UniProt P02710: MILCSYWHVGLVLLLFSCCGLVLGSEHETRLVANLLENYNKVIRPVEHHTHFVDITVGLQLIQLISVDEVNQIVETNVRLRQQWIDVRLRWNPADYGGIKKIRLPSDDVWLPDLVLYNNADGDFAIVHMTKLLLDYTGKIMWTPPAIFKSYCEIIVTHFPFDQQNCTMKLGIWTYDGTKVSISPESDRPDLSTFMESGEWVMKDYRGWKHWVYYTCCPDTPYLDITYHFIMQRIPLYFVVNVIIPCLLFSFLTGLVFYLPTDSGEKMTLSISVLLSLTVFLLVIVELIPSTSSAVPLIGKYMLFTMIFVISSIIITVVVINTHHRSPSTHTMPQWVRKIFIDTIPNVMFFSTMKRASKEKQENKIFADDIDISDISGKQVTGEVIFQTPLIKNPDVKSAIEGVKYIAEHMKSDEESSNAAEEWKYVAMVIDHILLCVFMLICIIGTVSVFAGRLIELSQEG
UniProt P02714: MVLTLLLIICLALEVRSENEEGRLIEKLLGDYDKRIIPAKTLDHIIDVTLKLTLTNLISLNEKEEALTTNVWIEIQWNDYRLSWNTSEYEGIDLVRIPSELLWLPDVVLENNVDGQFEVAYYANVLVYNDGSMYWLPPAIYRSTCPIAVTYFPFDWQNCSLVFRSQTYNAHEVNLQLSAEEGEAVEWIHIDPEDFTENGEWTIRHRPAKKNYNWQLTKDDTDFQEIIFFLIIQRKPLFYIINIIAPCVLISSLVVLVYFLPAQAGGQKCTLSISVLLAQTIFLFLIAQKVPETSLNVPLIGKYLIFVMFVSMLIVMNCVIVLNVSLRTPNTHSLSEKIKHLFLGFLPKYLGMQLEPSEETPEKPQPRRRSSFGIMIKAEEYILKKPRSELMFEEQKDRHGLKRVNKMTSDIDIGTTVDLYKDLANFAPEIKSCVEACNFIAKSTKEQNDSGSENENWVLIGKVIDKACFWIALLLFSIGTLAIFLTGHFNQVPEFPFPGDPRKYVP
UniProt P02718: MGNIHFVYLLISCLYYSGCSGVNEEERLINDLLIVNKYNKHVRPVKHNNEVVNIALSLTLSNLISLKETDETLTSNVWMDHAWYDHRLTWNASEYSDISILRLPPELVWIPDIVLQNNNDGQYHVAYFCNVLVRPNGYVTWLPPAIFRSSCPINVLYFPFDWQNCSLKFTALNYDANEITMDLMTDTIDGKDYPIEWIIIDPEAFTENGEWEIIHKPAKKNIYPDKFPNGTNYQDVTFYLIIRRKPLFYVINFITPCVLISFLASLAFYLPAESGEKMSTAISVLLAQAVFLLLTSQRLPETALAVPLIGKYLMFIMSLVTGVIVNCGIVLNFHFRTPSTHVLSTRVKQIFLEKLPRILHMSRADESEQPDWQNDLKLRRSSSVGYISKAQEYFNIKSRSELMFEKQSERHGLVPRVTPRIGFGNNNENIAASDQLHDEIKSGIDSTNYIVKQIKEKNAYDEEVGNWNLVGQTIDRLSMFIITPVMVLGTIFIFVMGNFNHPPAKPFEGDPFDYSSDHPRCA
UniProt Q8WSF8, 18-236 limits assumed: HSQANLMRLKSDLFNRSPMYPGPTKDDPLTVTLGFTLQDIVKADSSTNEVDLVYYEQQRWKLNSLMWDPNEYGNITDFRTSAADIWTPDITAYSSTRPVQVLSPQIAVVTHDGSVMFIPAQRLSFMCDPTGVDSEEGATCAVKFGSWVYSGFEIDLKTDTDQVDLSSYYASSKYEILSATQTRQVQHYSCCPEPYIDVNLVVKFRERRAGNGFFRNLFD
UniProt P36544, 23-502 limits assumed: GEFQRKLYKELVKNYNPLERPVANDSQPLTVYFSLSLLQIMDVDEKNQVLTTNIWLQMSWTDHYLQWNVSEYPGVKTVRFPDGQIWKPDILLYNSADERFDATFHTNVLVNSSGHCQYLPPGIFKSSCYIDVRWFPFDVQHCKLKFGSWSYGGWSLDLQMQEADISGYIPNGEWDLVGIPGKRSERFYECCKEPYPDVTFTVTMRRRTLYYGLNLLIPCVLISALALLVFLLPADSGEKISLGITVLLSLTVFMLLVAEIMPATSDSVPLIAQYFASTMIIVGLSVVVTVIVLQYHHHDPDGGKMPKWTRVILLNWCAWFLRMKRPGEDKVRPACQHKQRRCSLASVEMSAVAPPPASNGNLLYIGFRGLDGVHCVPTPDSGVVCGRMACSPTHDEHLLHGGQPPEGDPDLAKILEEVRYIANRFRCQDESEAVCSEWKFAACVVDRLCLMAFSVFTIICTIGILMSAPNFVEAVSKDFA

Assays:
[1] = molecular target: T. californica nAChR (Tetronarce californica, UniProt P02710+P02714+P02718); test: Radioligand assay, competition with [125I]-αBgt for T. californica electric organ membranes; details: for IC50: inhibition of [125I]-αBgt binding, 95% CI in the row below; for nH (Hill slope): mean ± SEM
[2] = molecular target: A. californica AChBP (Aplysia californica, UniProt Q8WSF8); test: Radioligand assay, competition with [125I]-αBgt for A. californica AChBP; details: for IC50: inhibition of [125I]-αBgt binding, 95% CI in the row below; for nH (Hill slope): mean ± SEM, [125I]-αBgt binding
[3] = molecular target: human α7 nAChR (Homo sapiens, UniProt P36544); test: Radioligand assay, competition with [125I]-αBgt for α7 nAChR in GH4C1 cells; details: for IC50: inhibition of [125I]-αBgt binding, 95% CI in the row below; for nH (Hill slope): mean ± SEM, [125I]-αBgt binding

SMILES	IC50 [1] [µM]	nH (Hill slope) ([1]; [125I]-αBgt binding)	IC50 [2] [µM]	nH (Hill slope) [2]	IC50 [3] [µM]	nH (Hill slope) [3]	fold less potent than d-TC ([1]; ratio of IC50 values, [125I]-αBgt binding) [fold]
COc1cc2c3c(c1O)Oc1ccc(cc1)C[C@@H]1NCCc4cc(OC)c(O)c(c41)-c1cc(ccc1O)C[C@H]3NCC2	17	-1.05 ± 0.02	–	–	–	–	–
COc1cc2c(cc1O)[C@@H](Cc1ccc(O)c(Oc3cc4c(cc3OC)CCN[C@H]4Cc3ccc(O)cc3)c1)NCC2 [BBIQA1]	26.3	-1.13 ± 0.02	3.8	-1.39 ± 0.09	162	-1.19 ± 0.10	–
COc1ccc2cc1Oc1cc3c(cc1O)CCN[C@H]3Cc1ccc(cc1)Oc1c(O)c(OC)cc3c1[C@@H](C2)[N+](C)(C)CC3 [BBIQA2]	8.75	-0.69 ± 0.05	7.63	-1.16 ± 0.11	5.52	-0.82 ± 0.05	22
COc1cc2c3cc1Oc1cc(ccc1O)C[C@@H]1c4c(cc(OC)c(O)c4Oc4ccc(cc4)C[C@@H]3N(C)CC2)CC[N+]1(C)C [d-TC, d-tubocurarine, reference compound]	–	-1.28 ± 0.11	–	–	7.77	-1.02 ± 0.05	–
